A mixed list of measured activities; the numbers were collected in NIAID ChemDB.

All rows: whole-cell or culture tests; organism: Aspergillus fumigatus

Two numbers with a dash give a range or band.

compound	conditions	endpoint	strain	method	value
Cc1ccc(Oc2c(C3C(C#N)=C(N)OC4=C3C(=O)CCC4)c(C)nn2-c2ccccc2)cc1		MIC	MTCC 3008		500 µg/mL
COc1cc(C(C)=O)ccc1O		MIC50		agar	357 µg/mL
Cc1ccc2nc(N3CCOCC3)c(/C=C(/C#N)c3nc4ccccc4[nH]3)cc2c1		MIC	MTCC 3008	broth dilution	1000 µg/mL
N#CCc1ccccc1		MFC		broth dilution	300 µg/mL
O=C(O)c1ccccc1O		MIC50		agar	80 µg/mL
COc1ccc2nc(Oc3ccc(Cl)cc3)c(C3C(C#N)=C(N)Oc4c3c(=O)oc3ccccc43)cc2c1		MIC	MTCC 3008		>1000 µg/mL
C[C@H]1[C@H](O)[C@@H](C)/C=C/C=C/C=C/C=C/C=C/C=C/C=C/[C@H](O[C@@H]2O[C@H](C)[C@@H](O)[C@H](N)[C@@H]2O)C[C@@H]2O[C@](O)(C[C@@H](O)C[C@@H](O)CC[C@H](O)[C@@H](O)C[C@@H](O)CC(=O)O[C@H]1C)C[C@H](O)[C@H]2C(=O)O		MIC	VPCI 190/96	broth dilution	1.95 µg/mL
Cc1ccc(Sc2nc3ccccc3cc2C2C(C#N)=C(N)Oc3c2c(=O)oc2ccccc32)cc1		MIC	MTCC 3008	broth dilution	100 µg/mL
COc1ccc2nc(N3CCOCC3)c(CC(C#N)c3nc4ccccc4[nH]3)cc2c1		MIC	MTCC 3008	broth dilution	500 µg/mL
C[C@@H]1[C@H](O)[C@@H](C)/C=C/C=C/C=C/C=C/C=C/C=C/C=C/[C@H](O[C@@H]2O[C@H](C)[C@@H](O)[C@H](N)[C@@H]2O)C[C@@H]2O[C@](O)(C[C@@H](O)C[C@@H](O)[C@H](O)CC[C@@H](O)C[C@@H](O)CC(=O)O[C@H]1C)C[C@H](O)[C@H]2C(=O)O		Geometric mean MIC	27 isolates		0.34 µg/mL
COc1ccc2nc(Oc3ccccc3)c(C3C(C#N)=C(N)Oc4c3c(=O)oc3ccc(C)cc43)cc2c1		MIC	MTCC 3008		500 µg/mL
COc1cc(O)c2c(=O)oc3c(c2c1)C(C)(O)CC3=O		EC50	CGMCC 3.5835	resazurin	229 µM
C[C@H]1[C@H](O)[C@@H](C)/C=C/C=C/C=C/C=C/C=C/C=C/C=C/[C@H](O[C@@H]2O[C@H](C)[C@@H](O)[C@H](N)[C@@H]2O)C[C@@H]2O[C@](O)(C[C@@H](O)C[C@@H](O)CC[C@H](O)[C@@H](O)C[C@@H](O)CC(=O)O[C@H]1C)C[C@H](O)[C@H]2C(=O)O		MIC100	ATCC 26934	broth dilution	0.5 µg/mL
OC(CN1CCN(C(c2ccccc2)c2ccc(Cl)cc2)CC1)Cn1cncn1		MIC	ATCC 96918	broth dilution	200 µg/mL
COc1cccc(/C=C/C(=O)c2ccccc2)c1OC		MIC	ATCC 26934		>50 µg/mL
O=[N+]([O-])c1cc(C[Se]c2nnnn2Cc2ccccc2)cc([N+](=O)[O-])c1	48 h	EC50	231	broth dilution	>500 µM
O=C/C=C/c1ccccc1		MIC	MTCC 2550	broth dilution	80 µg/mL
CN(C/C=C/C#CC(C)(C)C)Cc1cccc2ccccc12		MIC100	ATCC 26934	broth dilution	0.78 µg/mL
Cc1noc(NS(=O)(=O)c2ccc(N)cc2)c1C		Geometric mean MIC	20 isolates		>400 µg/mL
CCC(C)n1ncn(-c2ccc(N3CCN(c4ccc(OC[C@H]5CO[C@](Cn6cncn6)(c6ccc(Cl)cc6Cl)O5)cc4)CC3)cc2)c1=O		MIC90	156 isolates		2 µg/mL
Cc1ccc(C(=O)/C=C/c2ccc(C(=O)O)cc2)cc1		MIC	3 clinical isolates		>32 µg/mL
O=[N+]([O-])c1cc(C[Se]c2nnnn2C2CCCCC2)cc([N+](=O)[O-])c1	48 h	EC50	231	broth dilution	>500 µM
Cc1ccc2nc(N3CCOCC3)c(CC(C#N)c3nc4ccc(C)cc4[nH]3)cc2c1		MIC	MTCC 3008	broth dilution	250 µg/mL
Cc1ccc(Oc2nc3ccc(C)cc3cc2C2C(C#N)=C(N)Oc3c2c(=O)oc2ccccc32)cc1		MIC	MTCC 3008		1000 µg/mL
CN(C)C1=NC(=O)/C(=C/c2ccc(Cl)cc2)S1		MIC100	ATCC 26934	broth dilution	>250 µg/mL
O=C1/C(=C/c2ccccc2)CN(C(=O)/C=C/c2ccc(Cl)c(Cl)c2)C/C1=C\c1ccccc1		MIC	3 clinical isolates		>32 µg/mL
Cc1nn(-c2ccccc2)c2c1C(c1c(O)c3ccccc3oc1=O)c1c(oc3ccccc3c1=O)O2		MIC		agar diffusion / agar	50 µg/mL
O=[N+]([O-])c1cn(CC(O)CN2CCN(C(c3ccccc3)c3ccc(Cl)cc3)CC2)cn1		MIC	ATCC 96918	broth dilution	50 µg/mL
COc1cc(O)cc(-c2cc(O)c(O)cc2C)c1		EC50	CGMCC 3.5835	resazurin	>250 µM
C[C@@H]1[C@H](O)[C@@H](C)/C=C/C=C/CC/C=C/C=C/C=C/C=C/[C@H](O[C@@H]2O[C@H](C)[C@@H](O)[C@H](N)[C@@H]2O)C[C@@H]2O[C@](O)(C[C@@H](O)[C@H](O)CC[C@@H](O)C[C@@H](O)C[C@@H](O)CC(=O)O[C@H]1C)C[C@H](O)[C@H]2C(=O)O		MIC	MTCC 3008		100 µg/mL
N#CC1=C(N)Oc2c(c(=O)oc3ccccc23)C1c1cc2ccccc2nc1Oc1ccc(Cl)cc1		MIC	MTCC 3008		500 µg/mL
O=[N+]([O-])c1cc(CSc2cccc[n+]2[O-])cc([N+](=O)[O-])c1	24 h	EC50	231	broth dilution	>500 µM
CN(C/C=C/C#CC(C)(C)C)Cc1cccc2ccccc12	clinical isolate	MIC80		broth dilution	3.44 µM
COc1ccc(/C=C/C(=O)c2ccccc2)c(OC)c1		MIC	ATCC 26934		>50 µg/mL
COc1cccc(CN=C=S)c1		MFC		broth dilution	150 µg/mL
CCc1ccccc1O		MIC50		agar	58 µg/mL
COc1ccc(C(=O)CC(c2cc3ccccc3nc2Cl)C(C#N)C#N)cc1OC		MIC	ATCC 26934		>50 µg/mL
O=C(O)/C=C/c1ccc(O)c(O)c1		MIC100		agar	>1000 µg/mL
S=C=NCc1ccccc1		MFC		broth dilution	10 µg/mL
Cc1ccc2oc(=O)c3c(c2c1)OC(N)=C(C#N)C3c1cc2ccccc2nc1Oc1ccccc1		MIC	MTCC 3008		>1000 µg/mL
Cc1ccc2nc(Sc3ccc(Cl)cc3)c(C3C(C#N)=C(N)Oc4c3c(=O)oc3ccc(C)cc43)cc2c1		MIC	MTCC 3008	broth dilution	1000 µg/mL
CNCCC(Oc1ccc(C(F)(F)F)cc1)c1ccccc1		MFC	10 clinical isolates		39–156 µg/mL
Cc1cc(O)cc2oc3cc(O)cc(O)c3c(=O)c12		EC50	CGMCC 3.5835	resazurin	169 µM
O=c1oc2ccccc2c(O)c1C(c1c(O)c2ccccc2oc1=O)c1c[nH]c2ccccc12		MIC		agar diffusion / agar	50 µg/mL
COc1ccc2nc(Sc3ccccc3)c(C3C(C#N)=C(N)Oc4c3c(=O)oc3ccc(C)cc43)cc2c1		MIC	MTCC 3008	broth dilution	1000 µg/mL
Cc1ccc(Oc2c(C3C(C#N)=C(N)OC4=C3C(=O)CCC4)c(C)nn2-c2ccc(C)cc2)cc1		MIC	MTCC 3008		500 µg/mL
COc1cccc(/C=C/C(=O)c2ccc(Br)cc2)c1		MIC	ATCC 26934		>50 µg/mL
N#C/C(=C/c1cc2ccccc2nc1N1CCOCC1)c1nc2ccccc2[nH]1		MIC	MTCC 3008	broth dilution	>1000 µg/mL
O=C(O)c1cccc(-n2nnnc2SCc2cc([N+](=O)[O-])cc([N+](=O)[O-])c2)c1	24 h	EC50	231	broth dilution	>500 µM
O=C(O)c1ccc(/C=C/C(=O)c2ccc(Cl)cc2)cc1		MIC	3 clinical isolates		>32 µg/mL
CN(C/C=C/C#CC(C)(C)C)Cc1cccc2ccccc12		MIC90	60 isolates		>16 µg/mL
O=C(/C=C/c1ccccc1)c1ccccc1		MIC	ATCC 26934		>50 µg/mL
COc1ccccc1CN=C=S		MFC		broth dilution	150 µg/mL
COc1ccc(Oc2c(C3C(C#N)=C(N)OC4=C3C(=O)CC(C)(C)C4)c(C)nn2-c2ccc(C)cc2)cc1		MIC	MTCC 3008		500 µg/mL
COc1cc(O)c2c(c1)C1=C[C@@H](O)[C@@H](O)C[C@]1(C)OC2=O		EC50	CGMCC 3.5835	resazurin	>250 µM
CCC(C)n1ncn(-c2ccc(N3CCN(c4ccc(OC[C@H]5CO[C@](Cn6cncn6)(c6ccc(Cl)cc6Cl)O5)cc4)CC3)cc2)c1=O		MFC	NFI 0159		0.25 µg/mL
CCCCCCCCOc1ccc(-c2ccc(C(=O)NC3CC(NCCN)CNC(=O)[C@@H]4[C@@H](O)[C@@H](C)CN4C(=O)[C@@H](CO)NC(=O)[C@H]([C@H](O)Cc4ccccc4)NC(=O)[C@@H]4C[C@@H](O)CN4C(=O)[C@H]([C@@H](C)O)NC3=O)cc2)cc1		MIC	50 isolates		0.25 µg/mL
CCc1nc(N)nc(N)c1-c1ccc(Cl)cc1		MFC	20 isolates		>4 µg/mL
O=C(CCl)N1CCN(C(c2ccccc2)c2ccc(Cl)cc2)CC1		MIC	ATCC 96918	broth dilution	50 µg/mL
COc1ccc2nc(N3CCOCC3)c(/C=C(/C#N)c3nc4ccc(C)cc4[nH]3)cc2c1		MIC	MTCC 3008	broth dilution	1000 µg/mL
COc1cc(O)c(C(=O)O)c(-c2cc(O)c(O)cc2C)c1		EC50	CGMCC 3.5835	resazurin	198 µM
O=C(CSc1nc2ccccc2[nH]1)N1CCN(C(c2ccccc2)c2ccc(Cl)cc2)CC1		MIC	ATCC 96918	broth dilution	>400 µg/mL
Cc1nn(-c2ccccc2)c(Oc2ccccc2)c1C1C(C#N)=C(N)OC2=C1C(=O)CCC2		MIC	MTCC 3008		>1000 µg/mL
Cc1ccc2oc(=O)c3c(c2c1)OC(N)=C(C#N)C3c1cc2ccccc2nc1Sc1ccccc1		MIC	MTCC 3008	broth dilution	1000 µg/mL
Cc1cc(NS(=O)(=O)c2ccc(N)cc2)no1		Geometric mean MIC	20 isolates		19.3 µg/mL
CCCCCOc1ccc(-c2cc(-c3ccc(C(=O)N[C@H]4C[C@@H](O)[C@@H](O)NC(=O)[C@@H]5[C@@H](O)[C@@H](C)CN5C(=O)[C@H]([C@H](O)CC(N)=O)NC(=O)[C@H]([C@H](O)[C@@H](O)c5ccc(O)c(OS(=O)(=O)O)c5)NC(=O)[C@@H]5C[C@@H](O)CN5C(=O)[C@H]([C@@H](C)O)NC4=O)cc3)no2)cc1		MIC	IFM40814		0.0078 µg/mL
COc1cc(Cc2cnc(N)nc2N)cc(OC)c1OC		Geometric mean MIC	20 isolates		>16 µg/mL
Cc1nn(-c2ccccc2)c(Oc2ccc(Cl)cc2)c1C1C(C#N)=C(N)OC2=C1C(=O)CC(C)(C)C2		MIC	MTCC 3008		500 µg/mL
O=C1/C(=C/c2ccccc2)CN(C(=O)/C=C/c2ccc3c(c2)OCO3)C/C1=C\c1ccccc1		MIC	3 clinical isolates		>32 µg/mL
OC(Cn1cncn1)(Cn1cncn1)c1ccc(F)cc1F		MFC	NFI 4001		>128 µg/mL
O=C(CN1CCN(C(c2ccccc2)c2ccc(Cl)cc2)CC1)Cn1cnc([N+](=O)[O-])c1		MIC	ATCC 96918	broth dilution	50 µg/mL
COc1ccc(/C=C/C(=O)N2C/C(=C\c3ccccc3)C(=O)/C(=C/c3ccccc3)C2)cc1		MIC	3 clinical isolates		>32 µg/mL
COC(=O)C(C(=O)OC)C(CC(=O)c1ccccc1)c1ccccc1		MIC	ATCC 26934		>50 µg/mL
CC(C)=CCC/C(C)=C/CO		MIC	MTCC 2550	broth dilution	144 µg/mL
O=C(O)c1ccc(/C=C/C(=O)c2ccccc2)cc1		MIC	3 clinical isolates		>32 µg/mL
COc1cccc(/C=C/C(=O)c2ccccc2)c1		MIC	ATCC 26934		>50 µg/mL
Clc1ccc(C(c2ccccc2)N2CCN(Cc3nc4ccccc4[nH]3)CC2)cc1		MIC	ATCC 96918	broth dilution	50 µg/mL

5 of the rows above, restated:

compound	conditions	endpoint	strain	method	value
Cc1cc(NS(=O)(=O)c2ccc(N)cc2)no1		Geometric mean MIC	20 isolates		19.3 µg/mL
O=C1/C(=C/c2ccccc2)CN(C(=O)/C=C/c2ccc3c(c2)OCO3)C/C1=C\c1ccccc1		MIC	3 clinical isolates		>32 µg/mL
O=C(CN1CCN(C(c2ccccc2)c2ccc(Cl)cc2)CC1)Cn1cnc([N+](=O)[O-])c1		MIC	ATCC 96918	broth dilution	50 µg/mL
C[C@H]1[C@H](O)[C@@H](C)/C=C/C=C/C=C/C=C/C=C/C=C/C=C/[C@H](O[C@@H]2O[C@H](C)[C@@H](O)[C@H](N)[C@@H]2O)C[C@@H]2O[C@](O)(C[C@@H](O)C[C@@H](O)CC[C@H](O)[C@@H](O)C[C@@H](O)CC(=O)O[C@H]1C)C[C@H](O)[C@H]2C(=O)O		MIC	VPCI 190/96	broth dilution	1.95 µg/mL
Cc1ccc2oc(=O)c3c(c2c1)OC(N)=C(C#N)C3c1cc2ccccc2nc1Sc1ccccc1		MIC	MTCC 3008	broth dilution	1000 µg/mL

MIC50, MIC90 and the like: level of inhibition, or share of isolates inhibited. Neighbouring rows are from separate reports. ECn is the concentration giving n% inhibition of infection, replication or growth. An empty or dashed field is not shown.